Species on record: Rattus norvegicus
Experiment: Selectivity ratio of IC50 for rat alpha6/alpha3beta4 nACHR expressed in xenopous laevis oocyte to IC50 for rat alpha3beta4 nACHR expressed in xenopous laevis oocyte

Question: For `CC(C)C[C@@H]1NC(=O)[C@H](CCC(=O)O)NC(=O)[C@@H]2CCCN2C(=O)[C@H](Cc2cnc[nH]2)NC(=O)[C@H](CC(N)=O)NC(=O)[C@H](C(C)C)NC(=O)[C@H](CO)NC(=O)[C@@H]2CSSC[C@H](NC(=O)CN)C(=O)N[C@@H](CSSC[C@@H](C(N)=O)NC1=O)C(=O)N[C@@H](CO)C(=O)N[C@@H](Cc1cnc[nH]1)C(=O)N1CCC[C@H]1C(=O)N[C@@H](C)C(=O)N2`, which Ratio IC50 is on record?
Answer: 0.099
